In brackets after ≈: the same amount, converted by molar mass. Read-outs that look alike come from different tables or passages of the source.
Experiments:
[1] = target: SpsB (Staphylococcus aureus signal peptidase) (Staphylococcus aureus, UniProt P0A070); settings: read-out: SpsB IC50, whole-cell S. aureus (USA300 background, overexpressing SpsB) as SpsB source, fluorogenic peptide substrate, kinetic read 30 min
[2] = test system: Escherichia coli ATCC 25922; test: Minimum inhibitory concentration, broth micro-dilution (CLSI), E. coli; assay type: cell-based; settings: E. coli ATCC 25922, 35° C., 22 hours
[3] = test system: Escherichia coli MC4100 harboring the IMP4213 (E. coli IMP); settings: E. coli MC4100 IMP4213, increased outer-membrane permeability, 35° C., 22 hours
[4] = test system: Methicillin Resistant Staphylococcus aureus strain USA 300, NRS384; test: Minimum inhibitory concentration, broth micro-dilution (CLSI), S. aureus; assay type: cell-based; settings: MRSA USA 300 NRS384, 35° C., 22 hours

Amino acid sequences for entries named in this document (tags omitted).
UniProt P0A070, whole entry: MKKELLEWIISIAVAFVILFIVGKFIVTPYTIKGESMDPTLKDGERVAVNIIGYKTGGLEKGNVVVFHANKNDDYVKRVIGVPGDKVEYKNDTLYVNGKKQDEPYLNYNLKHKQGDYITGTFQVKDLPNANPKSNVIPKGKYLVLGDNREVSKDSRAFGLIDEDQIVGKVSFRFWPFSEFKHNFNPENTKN

Row | Structure (SMILES) | IC50 [1] [pM] | MIC (μg/mL) E. coli [2] [µg/mL] | MIC (μg/mL) E. coli IMP [3] [µg/mL] | MIC (μg/mL) S. aureus [4] [µg/mL] | IC50 ([1]; tested form: formic acid salt) [pM] | MIC (μg/mL) E. coli ([2]; tested form: formic acid salt) [µg/mL] | MIC (μg/mL) E. coli IMP ([3]; tested form: formic acid salt) [µg/mL] | MIC (μg/mL) S. aureus ([4]; tested form: formic acid salt) [µg/mL]
1 | CCC/C=C/c1ccc(C(=O)N[C@@H](CCN)C(=O)N(C)[C@@H]2C(=O)N[C@@H](C)C(=O)N[C@H](C(=O)NCC#N)Cc3ccc(OCCN)c(c3)-c3cc2ccc3OCCN)c(C)c1 | 680 | 0.63 (≈ 0.765 µM) | 0.016 (≈ 0.0194 µM) | 0.047 (≈ 0.057 µM) | – | – | – | –
2 | CCCCCCCCCCCCCC(=O)N[C@@H](CCN)C(=O)N(C)[C@@H]1C(=O)N[C@@H](C)C(=O)N[C@H](C(=O)NCC#N)Cc2ccc(OCC(N)=O)c(c2)-c2cc1ccc2OCC(N)=O | 2300 | 12 (≈ 13.7 µM) | 0.016 (≈ 0.0183 µM) | 0.25 (≈ 0.285 µM) | – | – | – | –
3 | Cc1cc(C(C)C(C)(C)C)ccc1C(=O)N[C@@H](CCN)C(=O)N(C)[C@@H]1C(=O)N[C@@H](C)C(=O)N[C@H](C(=O)NCC#N)Cc2ccc(OCCN)c(c2)-c2cc1ccc2OCCN (stereo partly drawn) | – | – | – | – | 1000 | 1.3 | 0.031 | 0.063
4 | Cc1cc(-c2ccc(C(C)(C)C)cc2)ccc1C(=O)N[C@@H](CCCN)C(=O)N(C)[C@@H]1C(=O)N[C@@H](C)C(=O)N[C@H](C(=O)NCC#N)Cc2ccc(OCCN)c(c2)-c2cc1ccc2OCCN | – | – | – | – | 750 | 0.22 | 0.023 | 0.031
5 | CCCCCCCCc1ccc(C(=O)N[C@@H](CCCCN)C(=O)N(C)[C@@H]2C(=O)N[C@@H](C)C(=O)N[C@H](C(=O)NCC#N)Cc3ccc(OCCN)c(c3)-c3cc2ccc3OCCN)cc1 | – | – | – | – | < 500 | 0.75 | <0.063 | –
6 | CCCCCCCCCC(=O)N[C@@H](CCC)C(=O)N[C@@H](CCN)C(=O)N(C)[C@@H]1C(=O)N[C@@H](C)C(=O)N[C@H](C(=O)NCC#N)Cc2ccc(OCCN)c(c2)-c2cc1ccc2OCCN | – | – | – | – | 800 | 1.5 | 0.0078 | 0.047
7 | CCCCCCCCc1ccc(C(=O)N[C@@H](CCN)C(=O)N(C)[C@@H]2C(=O)N[C@@H](C)C(=O)N[C@H](C(=O)NCC#N)Cc3ccc(OCCN)c(c3)-c3cc2ccc3OCCN)c(CC)c1 | – | – | – | – | 560 | 0.19 | 0.016 | 0.063

— patent US20180327367A1, “MACROCYCLIC BROAD SPECTRUM ANTIBIOTICS” (priority 2015, published 2018)
